Compound potency records, mixed from different reports. Data source: NIAID ChemDB in PubChem.

Shared fields: tests in culture; species: Rhinovirus; endpoint: inhibition

a–b is a range or a potency band. An empty or dashed field is not shown. Percent inhibition refers to the dose given; in toxicity tests it is the harm to the cells. Neighbouring rows are from separate reports.

compound | cell line | dose | read by | strain | value
Cc1ccc(N2CCC(c3cccc(C(F)(F)F)c3)C2)nn1 |  | 0.25 µg/mL |  | 100 serotypes | 53%
O=C(O)c1cc(S(=O)(=O)[O-])ccc1O | Human amnion AV3 cells | 50 µg/mL | cytopathic effect |  | 0%
CN(C)c1nc(C(F)(F)F)nc2c1ncn2Cc1ccc(Cl)c(NC=O)c1 | M-HELA | 8 µM | plaque count | Serotype 4 | 34%
CCOC(=O)c1csc(N2CCN(Cc3cc(C)ccc3C)CC2)n1 |  | 2.8 µg/mL |  | 100 serotypes | 53%
CS(=O)(=O)c1cnc2c(c1)CCC(c1ccc(Cl)c(Cl)c1)O2 | HeLa | 0.5 µg/mL | plaque count | Serotype 1A | 95.4%
O=C(/C=C(\O)c1ccccc1O)/C=C/c1ccc(O)cc1 | HeLa | 12.5 µM | plaque count | Serotype 1B | 36%
Cc1ccc(Cn2cnc3c(N(C)C)nc(C(F)(F)F)nc32)cc1 | M-HELA | 5 µM | plaque count | TYPE 16 | 12%
FC(F)(F)c1cccc(C2CCN(c3ccc(Br)nn3)C2)c1 |  | 0.01 µg/mL |  | 100 serotypes | 18%
COc1cc(C(=O)Oc2c(-c3ccc(Cl)c(Cl)c3)oc3ccccc3c2=O)ccc1OC(C)=O | HeLa | 1.56 µM | plaque count | Serotype 1B | 28%
O=C(/C=C(\O)c1ccccc1O)/C=C/c1ccc([N+](=O)[O-])cc1 | HeLa | 6.25 µM | plaque count | Serotype 14 | 41%
Nc1c(S(=O)(=O)O)cc2cc(S(=O)(=O)O)cc(O)c2c1O | Human embryonic lung cells | 50 µg/mL | cytopathic effect |  | 33%
COc1ccc(Cn2cnc3c(N(C)C)nc(C(F)(F)F)nc32)cc1C | M-HELA | 8 µM | plaque count | Serotype 18 | 35%
CC(=O)Oc1ccc(/C=C/C(=O)Oc2c(-c3ccc(Cl)c(Cl)c3)oc3ccccc3c2=O)cc1OC(C)=O | HeLa | 0.39 µM | plaque count | Serotype 1B | 13%
O=C(Nc1ccc2cc(S(=O)(=O)[O-])cc(S(=O)(=O)[O-])c2c1)c1ccccc1 | Human amnion AV3 cells | 10 µg/mL | cytopathic effect |  | 0%
Cc1ccccc1Cn1cnc2c(N(C)C)nc(C(F)(F)F)nc21 | M-HELA | 8 µM | plaque count | Serotype 21 | 18%
N#Cc1cc([N+](=O)[O-])ccc1Oc1ccc(Cl)c(Cl)c1 | VERO | 1 µg/mL | plaque count | HANK | 100%
COc1cc(/C=C/C(=O)Oc2c(-c3ccc(Cl)c(Cl)c3)oc3ccccc3c2=O)ccc1OC(C)=O | HeLa | 0.39 µM | plaque count | Serotype 1B | 6%
Cc1cccc(C2=CCN(c3ccc(Br)nn3)CC2)c1 |  | 0.013 µg/mL |  | 100 serotypes | 18%
CN(C)c1nc(C(F)(F)F)nc2c1ncn2Cc1ccc([N+](=O)[O-])cc1 | M-HELA | 8 µM | plaque count | Serotype 31 | 37%
Fc1cccc(Cn2cnc3c(Nc4cccc(F)c4)nc(C(F)(F)F)nc32)c1 | M-HELA | 5 µM | plaque count | Serotype 30 | 17%
Nc1ccccc1S(=O)(=O)O | Human embryonic lung cells | 50 µg/mL | cytopathic effect |  | 10%
CN(C)c1nc(C(F)(F)F)nc2c1ncn2Cc1ccc(Cl)cc1Cl | M-HELA | 8 µM | plaque count | Serotype 31 | 28%
Nc1ccc2c(O)cc(S(=O)(=O)[O-])cc2c1S(=O)(=O)[O-] | Human embryonic lung cells | 10 µg/mL | cytopathic effect |  | 70%
Cc1ccc(/C=C/c2cc(=O)c3ccccc3o2)cc1 | HeLa | 6.25 µM | plaque count | Serotype 1B | 36%
CN(C)c1nc(C(F)(F)F)nc2c1ncn2Cc1ccccc1Cl | M-HELA | 8 µM | plaque count | Serotype 31 | 38%
O=C(Nc1ccc2c(O)c(N=Nc3ccc(N=Nc4ccc(S(=O)(=O)O)cc4)cc3)c(S(=O)(=O)O)cc2c1)c1ccccc1 | Human embryonic lung cells | 5 µg/mL | cytopathic effect |  | 0%
O=C(O)Cc1csc(/N=C2\SC[C@@H]3Cc4ccccc4CN23)n1 | MRC-5 | 0.15 µg/mL | cytopathic effect | Serotype 1B | 80–100%
Cc1ccc(Cn2cnc3c(N(C)C)nc(C(F)(F)F)nc32)cc1C | M-HELA | 8 µM | plaque count | Serotype 3 | 39%
O=C(Nc1cc(S(=O)(=O)O)cc2cc(S(=O)(=O)O)cc(O)c12)c1ccccc1 | Human embryonic lung cells | 10 µg/mL | cytopathic effect |  | 20%
CCCCCCCCCCCCCCOc1ccc(C(C)=O)o1 | HFF | 0.25 µg/mL | plaque count | TYPE 39 | 98.8%
COc1cc(/C=C/C(=O)Oc2c(-c3ccc(Cl)c(Cl)c3)oc3ccccc3c2=O)ccc1O | HeLa | 1.56 µM | plaque count | Serotype 14 | 23%
Cc1ccc(Cn2c(Oc3ccccc3)nc3c(N(C)C)nc(C(F)(F)F)nc32)cc1 | M-HELA | 8 µg/mL | plaque count | TYPE 1B | 16%
COc1cc(C(=O)Oc2c(-c3ccc(Cl)cc3)oc3ccccc3c2=O)ccc1O | HeLa | 6.25 µM | plaque count | Serotype 14 | 36%
O=S(=O)([O-])c1ccc2c(NS(=O)(=O)c3ccccc3)cc(S(=O)(=O)[O-])cc2c1 | Human amnion AV3 cells | 50 µg/mL | cytopathic effect |  | 15%
COc1cc(C(=O)Oc2c(-c3ccc(Cl)cc3)oc3ccccc3c2=O)ccc1OC(C)=O | HeLa | 6.25 µM | plaque count | Serotype 14 | 10%
CC(C)Oc1ccc(Cn2cnc3c(N(C)C)nc(C(F)(F)F)nc32)cc1 | M-HELA | 8 µM | plaque count | Serotype 13 | 39%

The first 5 rows once more:

Cc1ccc(N2CCC(c3cccc(C(F)(F)F)c3)C2)nn1 ; dose: 0.25 µg/mL ; strain: 100 serotypes ; value: 53%
O=C(O)c1cc(S(=O)(=O)[O-])ccc1O ; cell line: Human amnion AV3 cells ; dose: 50 µg/mL ; read by: cytopathic effect ; value: 0%
CN(C)c1nc(C(F)(F)F)nc2c1ncn2Cc1ccc(Cl)c(NC=O)c1 ; cell line: M-HELA ; dose: 8 µM ; read by: plaque count ; strain: Serotype 4 ; value: 34%
CCOC(=O)c1csc(N2CCN(Cc3cc(C)ccc3C)CC2)n1 ; dose: 2.8 µg/mL ; strain: 100 serotypes ; value: 53%
CS(=O)(=O)c1cnc2c(c1)CCC(c1ccc(Cl)c(Cl)c1)O2 ; cell line: HeLa ; dose: 0.5 µg/mL ; read by: plaque count ; strain: Serotype 1A ; value: 95.4%